Source: publication PMC11091879, “Inhibitors of the Thioesterase Activity of Mycobacterium tuberculosis Pks13 Discovered Using DNA-Encoded Chemical Library Screening” (ACS Infectious Diseases, 2024)
Where two headings read alike, the source gives them in different places.

By UniProt entry, the sequences of proteins in these tests, tags left out. Residues count along the entry.
UniProt I6X8D2, 1451-1733 limits assumed: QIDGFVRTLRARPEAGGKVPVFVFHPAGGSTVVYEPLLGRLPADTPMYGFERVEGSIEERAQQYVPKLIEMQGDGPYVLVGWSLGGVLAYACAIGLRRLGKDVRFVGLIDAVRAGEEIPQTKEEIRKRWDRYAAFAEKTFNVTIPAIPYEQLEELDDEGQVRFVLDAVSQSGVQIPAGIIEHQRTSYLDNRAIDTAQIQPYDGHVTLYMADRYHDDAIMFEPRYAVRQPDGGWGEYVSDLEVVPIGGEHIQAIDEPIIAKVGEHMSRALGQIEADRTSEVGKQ

Legend:
Pks13-TE = Pks13-TE (Mycobacterium tuberculosis, UniProt I6X8D2); assay: TAMRA-FP affinity probe competition binding assay (fluorescence polarization); settings: assay not given
Description: The competition binding assay was used to assess compound biochemical activity. ActivX TAMRA-FP Serine Hydrolase Probe was purchased from ThermoFisher. Covalent binding of the probe to Pks13-TE was used to read fluorescence polarization and set up the assay based on that signal.[38] The assay was done in all-black 384-well plates in a total volume of 25 μL. Pks13-TE in 100 mM Na phosphate buffer at pH 7.4 with 1.6 mM CHAPS at final concentration of 2 μM was preincubated with compounds for 10 min at RT, then TAMRA fluorescent probe was added to a final concentration of 80 nM, mixed and incubated for 40 min, followed by measuring fluorescence polarization signal at excitation 540 nm and emission of 590 nm on Clariostar BMG Plate reader. Percent inhibition for the dose-response plots was calculated using 2% final DMSO as a negative control and 20 μM TAM16 as a positive control.

WT H37Rv = assay: MIC determination, wild-type Mtb H37Rv; assay type: cell-based, Mycobacterium tuberculosis; settings: for WT H37Rv MIC: Table S5, series 3

## CCC(C)(C)c1ccc(S(=O)(=O)N[C@H](CCc2nc(C)no2)Cc2ccccc2)cc1
Pks13-TE; Table S5, series 3
  IC50: 780 nM
WT H37Rv
  WT H37Rv MIC: > 125 µM

## Cc1noc(CC[C@H](Cc2ccccc2)NS(=O)(=O)c2ccc(C3CC3)cc2)n1
Pks13-TE; Table S5, series 3
  IC50: 3840 nM
WT H37Rv
  WT H37Rv MIC: > 125 µM

## CCC(C)(C)c1ccc(S(=O)(=O)N[C@H](CCc2nc(N(C)C)no2)Cc2c[nH]c3ccccc23)cc1
Pks13-TE; Table S5, series 3
  IC50: 1980 nM
Pks13-TE; read-out: enzyme potency / IC50
  IC50: 2000 nM
WT H37Rv
  activity against Mtb growth: not active against Mtb
  WT H37Rv MIC: > 125 µM

## CCC(C)(C)c1ccc(S(=O)(=O)N[C@@H](CCc2nc(N(C)C)no2)Cc2c[nH]c3ccccc23)cc1
Pks13-TE; Table S5, series 3
  IC50: > 20000 nM
WT H37Rv
  WT H37Rv MIC: > 250 µM

## CCC(C)(C)c1ccc(S(=O)(=O)N[C@H](CCc2nc(N(C)C)no2)Cc2ccccc2)cc1
Pks13-TE; Table S5, series 3
  IC50: 5390 nM

## Cc1noc(CC[C@H](Cc2ccccc2)NS(=O)(=O)c2ccc(Cl)cc2)n1
Pks13-TE; Table S5, series 3
  IC50: 16900 nM
WT H37Rv
  WT H37Rv MIC: > 125 µM

## CCC(C)(C)c1ccc(S(=O)(=O)N[C@@H](Cc2ccccc2)[C@@H](O)Cc2nc(C)no2)cc1
Pks13-TE; Table S5, series 3
  IC50: 730 nM
WT H37Rv
  WT H37Rv MIC: > 125 µM

## CCC(C)(C)c1ccc(S(=O)(=O)N[C@H](CCc2nc(C)no2)Cc2c[nH]c3ccccc23)cc1
Pks13-TE; Table S5, series 3
  IC50: 890 nM
WT H37Rv
  WT H37Rv MIC: > 250 µM

## CCC(C)(C)c1ccc(S(=O)(=O)N(C)[C@H](CCc2nc(N(C)C)no2)Cc2c[nH]c3ccccc23)cc1
Pks13-TE; Table S5, series 3
  IC50: 580 nM
WT H37Rv
  WT H37Rv MIC: > 125 µM
